{"source": "paper PMC6010046", "about": "“Evaluation of polyphenols from Broussonetia papyrifera as coronavirus protease inhibitors” (Journal of Enzyme Inhibition and Medicinal Chemistry, 2017)", "target": "SARS-CoV 3CL^pro (Severe acute respiratory syndrome coronavirus, UniProt P0C6X7)", "type": "biochemical", "conditions": "pH 7.5"}
{"smiles": "O=c1c(O[C@@H]2O[C@H](CO)[C@H](O)[C@H](O)[C@H]2O)c(-c2ccc(O)c(O)c2)oc2cc(O)cc(O)c12", "note": "[Quercetin-β-galactoside, quercetin-β-galactoside, reference compound]", "values": [{"measurement": "IC50", "value": "129 ± 4.5", "unit": "µM"}]}
